# Replication capacity of HIV-1 mutants, integrase

Protein: integrase of HIV-1 NL4-3, numbered from its first residue. The source prints no sequence; the chain below is taken from UniProt P12497, a closely related isolate, and fits the source at the 252 positions it covers.
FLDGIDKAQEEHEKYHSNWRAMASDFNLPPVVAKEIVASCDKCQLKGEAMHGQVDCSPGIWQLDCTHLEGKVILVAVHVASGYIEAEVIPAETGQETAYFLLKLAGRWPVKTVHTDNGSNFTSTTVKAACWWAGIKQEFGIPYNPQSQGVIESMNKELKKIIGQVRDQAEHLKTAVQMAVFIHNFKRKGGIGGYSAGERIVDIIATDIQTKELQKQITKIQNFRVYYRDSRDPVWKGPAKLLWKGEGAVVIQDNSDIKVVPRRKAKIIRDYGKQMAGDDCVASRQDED
Effects on overlapping genes or RNA elements are not listed.

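Seven fragments of pNL4-3 were mutated by error-prone PCR, and each virus pool was passaged in CEM T cells. Sequencing gave the RC index: frequency after two rounds over frequency in the input plasmid.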

A higher RC index is a better tolerated change; approximate classes are lethal up to 0.1, attenuated to 0.2, tolerated above. A change reads original residue, position, new residue. Input reads are the counts in the plasmid library.

change,base,input reads,RC index
I89T,T4495C,394,0.0912
P90Q,C4498A,214,0.0746
P90L,C4498T,157,0.509
T93I,C4507T,281,0.296
G94R,G4509A,356,0.189
G94E,G4510A,252,0.157
Q95H,A4514C,192,0.0309
E96G,A4516G,203,0.0779
E96V,A4516T,242,0.0572
Y99F,A4525T,221,0.0358
F100I,T4527A,306,0.0646
F100L,C4529A,178,0.0889
L101F,C4530T,211,0.0750
L101H,T4531A,184,0.0430
L102V,T4533G,58,0.102
K103R,A4537G,173,0.0572
L104S,T4540C,187,0.116
L104F,A4541T,222,0.0267
A105T,G4542A,533,0.100
A105E,C4543A,62,0.128
G106R,G4545A,292,0.163
G106A,G4546C,34,0.116
G106V,G4546T,151,0.0786
R107G,A4548G,285,0.0625
R107T,G4549C,71,0.0279
R107S,A4550T,192,0.0412
W108S,G4552C,52,0.114
W108L,G4552T,152,0.169
W108C,G4553T,102,0.0970
P109T,C4554A,163,0.0971
P109Q,C4555A,192,0.124
V110E,T4558A,345,0.0229
K111E,A4560G,371,0.0426
K111R,A4561G,224,0.0353
K111I,A4561T,361,0.0548
K111N,A4562T,318,0.0187
V113I,G4566A,627,0.290
V113L,G4566C,220,0.252
H114L,A4570T,381,0.0467
T115A,A4572G,212,0.103
T115K,C4573A,116,0.0682
D116H,G4575C,69,0.172
D116Y,G4575T,317,0.162
N117D,A4578G,346,0.0514
N117Y,A4578T,273,0.0724
N117S,A4579G,342,0.0463
N117K,T4580A,597,0.0497
G118S,G4581A,242,0.229
G118C,G4581T,186,0.170
S119N,G4585A,488,0.158
N120D,A4587G,272,0.0364
N120S,A4588G,256,0.0541
F121I,T4590A,351,0.0338
F121Y,T4591A,387,0.0409
F121S,T4591C,330,0.120
F121L,C4592A,138,0.258
T122I,C4594T,371,0.192
S123R,A4596C,42,0.0471
S123G,A4596G,298,0.146
S123N,G4597A,639,0.254
S123T,G4597C,154,0.116
S123R,T4598G,45,0.0440
T124N,C4600A,193,0.133
T124I,C4600T,954,0.191
T125K,C4603A,63,0.126
V126L,G4605C,72,0.0824
V126A,T4606C,442,0.0671
K127R,A4609G,281,0.0915
A128S,G4611T,73,0.244
A129P,G4614C,39,0.101

Extract of 9 entries:

A105T (base G4542A, input reads 533) read 0.100.
G106A (base G4546C, input reads 34) read 0.116.
T125K (base C4603A, input reads 63) read 0.126.
V113L (base G4566C, input reads 220) read 0.252.
V113I (base G4566A, input reads 627) read 0.290.
P109T (base C4554A, input reads 163) read 0.0971.
N117K (base T4580A, input reads 597) read 0.0497.
I89T (base T4495C, input reads 394) read 0.0912.
R107G (base A4548G, input reads 285) read 0.0625.

The authors read an index above 1 as above wild type (1.9% of all changes in the genome). Nucleotide positions follow pNL4-3. Since each clone held several changes (about five per kb), neutral changes can read low.

Source: Al-Mawsawi et al. 2014 (doi:10.1186/s12977-014-0124-6), supplementary data.